Measured values from several laboratories, pooled; numbers as filed in NIAID ChemDB.

All rows: enzyme or target tests; agent: HIV-1; target: Protease; read by: fluorescence; measure: Ki

Neighbouring rows are from separate reports.

| SMILES | result |
|---|---|
| CC(O)[C@@H]1CC(NC(=O)[C@H](OCc2ccccc2)[C@H](O)[C@@H](O)[C@@H](OCc2ccccc2)C(=O)N[C@@H]2CO[C@H](C(C)O)C2)CO1 | 0.208 µM |
| COc1ccc(S(=O)(=O)N(CC(C)C)C[C@@H](O)[C@@H]2Cc3ccc(cc3)OCCCCCCc3c(O)cccc3C(=O)N2)cc1 | 0.0023 µM |
| CCC(=O)O[C@@H](C/C=C(\C)C(=O)OC)C[C@H](OC(C)=O)[C@@H](CCCOC(=O)CC(C)C)OC(=O)CC(C)C | 3.6 µM |
| CC(C)OC(=O)NCCC(C)(C)CN(C[C@@H](O)[C@H](Cc1ccccc1)NC(=O)O[C@H]1CO[C@H]2OCC[C@H]21)S(=O)(=O)c1ccc(N)cc1 | <0.001 µM |
| CCOC[C@@H]1CC(NC(=O)[C@H](OCc2ccccc2)[C@H](O)[C@@H](O)[C@@H](OCc2ccccc2)C(=O)N[C@@H]2CO[C@H](COCC)C2)CO1 | >5 µM |
| O=S1(=O)N(Cc2ccccc2)C[C@H](O)[C@@H](O)CN1Cc1ccccc1/C=C/c1ccccc1 | >20 µM |
| COc1ccc(S(=O)(=O)N(CC(C)C)C[C@@H](O)[C@@H]2Cc3ccc(cc3)OCCCCCCCCc3c(O)cccc3C(=O)N2)cc1 | 0.02 µM |
| O=C(NC1CO[C@H](CO)C1)[C@H](OCc1ccccc1)[C@H](O)[C@@H](O)[C@@H](OCc1ccccc1)C(=O)N[C@@H]1CO[C@H](CO)C1 | 0.0048 µM |
| CC(C)(CCCCNC(=O)Oc1ccc(F)cc1)CN(C[C@@H](O)[C@H](Cc1ccccc1)NC(=O)O[C@H]1CO[C@H]2OCC[C@H]21)S(=O)(=O)c1ccc2c(c1)OCO2 | <0.001 µM |
| O=S1(=O)N(Cc2ccccc2/C=C/c2ccccc2)C[C@H](O)[C@@H](O)CN1Cc1ccccc1CCc1ccccc1 | >20 µM |
| CCC(=O)O[C@@H](C/C=C(\C)C(=O)OC)C[C@@H](OC(C)=O)[C@H](CCCOC(=O)CC(C)C)OC(=O)CC(C)C | 2.1 µM |
| CC(C)(CCCOC(=O)NO)CN(C[C@@H](O)[C@H](Cc1ccccc1)NC(=O)O[C@H]1CO[C@H]2OCC[C@H]21)S(=O)(=O)c1ccc2c(c1)OCO2 | <0.001 µM |
| COc1ccc(S(=O)(=O)N(CC(C)C)C[C@@H](O)[C@@H]2Cc3ccc(cc3)OCC/C=C/CCc3c(O)cccc3C(=O)N2)cc1 | 0.0005 µM |
| CC(=O)CCC(C)(C)CN(C[C@@H](O)[C@H](Cc1ccccc1)NC(=O)O[C@H]1CO[C@H]2OCC[C@H]21)S(=O)(=O)c1cccc2c1OCO2 | <0.001 µM |
| COC[C@@H]1[C@@H](OC)[C@H](OC)[C@H](COC)N1C[C@@H](O)[C@H](Cc1ccccc1)NC(=O)OCc1ccccc1 | 20 µM |
| C=CCOC[C@@H]1CC(NC(=O)[C@H](OCc2ccccc2)[C@H](O)[C@@H](O)[C@@H](OCc2ccccc2)C(=O)N[C@H]2c3ccccc3C[C@H]2O)CO1 | 0.0113 µM |
| CC(C)(CCC#N)CN(C[C@@H](O)[C@H](Cc1ccccc1)NC(=O)O[C@@H]1CO[C@@H]2OCC[C@@H]21)S(=O)(=O)c1cccc(N)c1 | <0.001 µM |
| O=S1(=O)N(Cc2ccccc2CCc2ccccc2)C[C@H](O)[C@@H](O)CN1Cc1ccccc1Cc1ccccc1 | 7.5 µM |
| CO/N=C(/C)CCC(C)(C)CN(C[C@@H](O)[C@H](Cc1ccccc1)NC(=O)O[C@H]1CO[C@H]2OCC[C@H]21)S(=O)(=O)c1cccc2c1OCO2 | <0.001 µM |
| O=S1(=O)N(Cc2ccccc2/C=C/c2ccccc2)C[C@H](O)[C@@H](O)CN1Cc1ccccc1-c1ccccc1 | 4.9 µM |
| COCC(=O)NCC(=O)NCCCC(C)(C)CN(C[C@@H](O)[C@H](Cc1ccccc1)NC(=O)O[C@H]1CO[C@H]2OCC[C@H]21)S(=O)(=O)c1ccc2c(c1)OCO2 | <0.001 µM |
| CCC(=O)O[C@H](C/C=C(\C)C(=O)OC)C[C@H](OC(C)=O)[C@H](CCCOC(=O)CC(C)C)OC(=O)CC(C)C | 16 µM |

2 of the rows above, restated:

{"SMILES": "O=S1(=O)N(Cc2ccccc2/C=C/c2ccccc2)C[C@H](O)[C@@H](O)CN1Cc1ccccc1CCc1ccccc1", "result": ">20 µM"}
{"SMILES": "COc1ccc(S(=O)(=O)N(CC(C)C)C[C@@H](O)[C@@H]2Cc3ccc(cc3)OCCCCCCCCc3c(O)cccc3C(=O)N2)cc1", "result": "0.02 µM"}